PubChem BioAssay AID1224833 – University of Georgia | 2016

- Screen: 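Human genes whose knock-down alters rotavirus replication in monkey cells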 (primary screen)
- Cells: monkey MA104 kidney cells
- Knock-down reagent: siRNA pool against human genes, 50 nM
- Duration: 48 h knock-down before infection; read 24 h after infection
- Challenge: infection with rotavirus strain RV3 two days after transfection; infectious dose for this stage not given
- Measured: 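z-score of rotavirus antigen signal per well, from a fluorescent immunoassay, relative to non-targeting control wells on the same plate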
- Scale: z-score vs non-targeting control: higher = more rotavirus replication than with non-targeting control
- Call rule: In these data the active calls have z-score vs non-targeting control at about -1 or lower, or at about 1 or higher
- Calls: active = z-score beyond 1 either way; inactive = z-score within 1 of zero
The whole screen tested about 12,000 reagents; below is an unselected part. About 5,600 of them (46%) count as active. 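Active calls cover z-scores past 1 in both directions, so they include lowered as well as raised rotavirus replication.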

The first 4 records, ahead of the listing:
no.	gene	z-score vs non-targeting control	call
1	DDX25	-1.08	active
2	OR52W1	0.926	inactive
3	CSMD1	-0.123	inactive
4	FANCL	0.493	inactive

Main list, repeating the preview:
no.	gene	z-score vs non-targeting control	call
1	DDX25	-1.08	active
2	OR52W1	0.926	inactive
3	CSMD1	-0.123	inactive
4	FANCL	0.493	inactive
5	OR2A14	-0.513	inactive
6	NOP10	-0.0079	inactive
7	DCP1A	0.831	inactive
8	ABHD13	-0.944	inactive
9	EYS	-0.941	inactive
10	ZBTB6	0.0671	inactive
11	FCER1G	-0.782	inactive
12	MRPL22	-1.8	active
13	CPD	-0.913	inactive
14	NTN1	-0.212	inactive
15	TMEM41A	-0.815	inactive
16	TSPAN7	-0.501	inactive
17	CRB1	-1.05	active
18	BOK	-1.31	active
19	GDF2	1.65	active
20	CFAP100	-1.25	active
21	ZSCAN31	0.218	inactive
22	LACC1	-0.726	inactive
23	TOPBP1	0.757	inactive
24	PIGP	0.5	inactive
25	DNAJC21	-2.2	active
26	CNIH4	1.44	active
27	SFI1	0.617	inactive
28	RS1	-2.5	active
29	PFDN2	-0.355	inactive
30	F8A3	-0.0916	inactive
31	MIP	-2.68	active
32	PCDHB10	-0.209	inactive
33	SOS1	2.5	active
34	RGPD1	-1.05	active
35	TNFRSF21	-0.528	inactive
36	VSTM2A	0.644	inactive
37	UPF3B	-2.12	active
38	SPTLC1	-1.35	active
39	UPK2	1.17	active
40	MYCBP	-0.724	inactive
41	HBG2	-1.72	active
42	OR2D3	-1.38	active
43	MRPL12	-0.959	inactive
44	UBL7	-0.336	inactive
45	OR2AG1	-2.65	active
